Compound potency records, mixed from different reports. Data source: NIAID ChemDB in PubChem.

Common to all: whole-cell or culture tests; species: HIV-1; read by: p24; endpoint: EC50

a–b is a range or a potency band.

SMILES | cells | changes | conditions | strain | result
CC(C)(C)OC(=O)N[C@@H](Cc1ccccc1)[C@H](O)CNC[C@@H](O)[C@H](Cc1ccc(OCC(=O)N2CCOCC2)cc1)NC(=O)OC(C)(C)C | PBMC |  |  | A018A | 0.04 µM
CN1C2CCC1(c1nc(C(=O)NCc3ccc(F)cc3)c(O)c(=O)[nH]1)CC2 | MT-4 |  | 50% human serum | IIIB | <0.12 µM
C=C(c1ccc(OC)c(OC)c1)c1c2cc(OC)c(OC)cc2cc[n+]1C | H9 |  |  | IIIB | >17.4 µg/mL
COc1ccc(S(=O)(=O)N(CC(C)C)C[C@@H](O)[C@H](Cc2ccccc2)NC(=O)O[C@H]2CO[C@H]3OCC[C@H]32)cc1 | PBMC | PR-L63P |  | ERS104PRE(PR-L63P) Clinical isolate | 0.0007 µM
Cc1ccc(-c2ccc3c(c2)C=C(C(=O)Nc2ccc(C[N+](C)(C)C4CCOCC4)cc2)CCC3)cc1 | PBMC |  |  | NL4-3 X4 | >1 µM
CC(C)(C)NC(=O)[C@@H]1CN(Cc2cccnc2)CCN1C[C@@H](O)C[C@@H](Cc1ccccc1)C(=O)N[C@H]1c2ccccc2C[C@H]1O | PBMC | PR-L10I I15V E35D N37E K45R I54V L63P A71V V82T L90M I93L C95F |  | Clinical isolate | 0.49 µM
CC(C)OC(=O)OCOP(=O)(CO[C@H](C)Cn1cnc2c(N)ncnc21)OCOC(=O)OC(C)C | PBMC |  |  | IIIB | 0.005 µM
O=c1[nH]c(=O)n([C@H]2CC(F)(F)[C@@H](CO)O2)cc1COCC(F)(F)F | CEM |  |  |  | 53.3 µg/mL
O=c1[nH]cnc2c1ncn2[C@H]1CC[C@@H](CO)O1 | MT-2 | RT-A360T |  | NL4-3 | 0.17 µM
CC1=CC(=O)[C@@H](O)[C@]2(C)[C@H]3C4(O)OC[C@]35[C@H]([C@@H](C)[C@H]4O)[C@@H](O)C(=O)O[C@@H]5C[C@@H]12 | PBMC |  |  |  | 0.63 µM
Cc1cn([C@H]2C[C@H](N=[N+]=[N-])[C@@H](CO)O2)c(=O)[nH]c1=O | PBMC | RT-M41L T215Y |  | RTMDR | >10 µM
O=C(CSc1nnnn1-c1ccccc1Br)Nc1ccccc1Cl | MT-4 |  |  |  | <10 µM
S=C(NCCc1cccs1)Nc1ccc(Br)cn1 | PBMC | RT-K20R M41L D67N T69N K70R L210W T215Y |  | G890-1 Clinical isolate NRTI-resistant | 0.032 µM
COc1ccc(NC(=O)CSc2nnnn2-c2c(C)cc(C)cc2C)c([N+](=O)[O-])c1 | MT-4 |  |  |  | <10 µM
Nc1nc2c(ncn2[C@H]2CO[C@@H](CO)O2)c(=O)[nH]1 | MT-2 | RT-D67N K70R T215Y K219Q |  | LAI | 0.58 µM
Cc1cn([C@H]2C[C@H](N=[N+]=[N-])[C@@H](CO)O2)c(=O)[nH]c1=O | MT-2 |  |  | NL4-3 | 0.002 µM
Cc1ccccc1Cc1cccc(C(=O)CC(=O)C(=O)O)c1 |  | INTG-S153Y N155S |  |  | 14 µM
O=C(NCc1ccc(F)cc1)c1nc(C2CCCCN2)[nH]c(=O)c1O | MT-4 |  | 50% human serum | IIIB | <5.83 µM
CC(C)(C)NC(=O)[C@@H]1CN(Cc2cccnc2)CCN1C[C@@H](O)C[C@@H](Cc1ccccc1)C(=O)N[C@H]1c2ccccc2C[C@H]1O | PBMC | RT-M41L D67N T69N K70R T215F K219E |  | 7324-1 NRTI resistant recombinant | 0.0218 µM
O=c1[nH]cnc2c1ncn2[C@H]1CC[C@@H](CO)O1 | PBMC |  |  | IIIB | 1.6 µM
CCCCCCCCCCCCCCCC(=O)OCC(COP(=O)(O)OC[C@H]1O[C@@H](n2cc(C)c(=O)[nH]c2=O)C[C@@H]1N=[N+]=[N-])OC(=O)CCCCCCCCCCCCCCC | CEM-CCRF |  |  | LAV | 4 µM
CN1CCN(C)C(c2nc(C(=O)NCc3ccc(F)cc3)c(O)c(=O)[nH]2)C1 | MT-4 |  | 50% human serum | IIIB | <0.62 µM
C=CCN(C(=O)CCc1ccccc1)C1CCN(C[C@H]2CN(C(=O)C3CCCC3)C[C@]2(O)c2ccccc2)CC1 | PBMC |  |  |  | >0.1 µM
[N-]=[N+]=N[C@H]1C[C@H](n2cc(COCC(F)(F)F)c(=O)[nH]c2=O)O[C@@H]1CO | CEM |  |  |  | 1.5 µg/mL
CN(C)C1(c2nc(C(=O)NCc3ccc(F)cc3)c(O)c(=O)[nH]2)CCCCC1 | MT-4 |  | 50% human serum | IIIB | <1 µM
Nc1nc(N)c2ncn([C@H]3CO[C@@H](CO)O3)c2n1 | MT-2 | RT-K65R |  | LAI | 48.1 µM
Cc1cn([C@H]2C[C@H](N=[N+]=[N-])[C@@H](CO)O2)c(=O)[nH]c1=O | CEM |  |  |  | 0.0025 µg/mL
Cc1c(N)nc([C@H](CC(N)=O)NC[C@H](N)C(N)=O)nc1C(=O)N[C@H](C(=O)N[C@H](C)[C@@H](O)[C@H](C)C(=O)N[C@H](C(=O)NCCc1nc(-c2nc(C(=O)NCCC[S+](C)C)cs2)cs1)[C@@H](C)O)C(O[C@@H]1O[C@@H](CO)[C@@H](O)[C@H](O)[C@@H]1O[C@H]1O[C@H](CO)[C@@H](O)[C@H](OC(N)=O)[C@@H]1O)c1cnc[nH]1 | PBMC |  |  | HXB2-D WT | 0.49 µM
C=CCN(C(=O)Nc1ccc(Cl)cc1)C1CCN(C[C@H]2CN(C(=O)C3CCCC3)C[C@]2(O)c2ccccc2)CC1 | PBMC |  |  |  | >0.1 µM
O=c1c2ccccc2n2nnc3ccc(NCCCN4CCN(CCCNc5ccc6nnn7c8ccccc8c(=O)c5c67)CC4)c1c32 | PBL |  |  | AZT-resistant | 0.01 µM
COC(=O)[C@H](C)NP(=O)(OC[C@@H]1C=C[C@H](n2cc(C)c(=O)[nH]c2=O)O1)Oc1ccc(Br)cc1 | PBMC | RT-M41L D67N T69N K70R T215F K219E |  | 7324-1 NRTI resistant recombinant | 0.0137 µM
Cc1cn([C@H]2C[C@H](N=[N+]=[N-])[C@@H](CO)O2)c(=O)[nH]c1=O | MT-2 | RT-L74V |  | LAI | 0.006 µM
CN(C)C1(c2nc(C(=O)NCc3ccc(F)cc3)c(O)c(=O)[nH]2)CCC1 | MT-4 |  | 10% FBS | IIIB | <0.02 µM
Nc1ccn([C@H]2CC[C@@H](CO)O2)c(=O)n1 | CEM-CCRF |  |  | LAV | 0.05 µM
Cc1cn([C@H]2C[C@H](N=[N+]=[N-])[C@@H](CO)O2)c(=O)[nH]c1=O | MT-4 |  |  | IIIB | 0.007 µM
C=CCN(C(=O)Cc1ccc([N+](=O)[O-])cc1)C1CCN(C[C@H]2CN(C(=O)C3CCCC3)C[C@]2(O)c2ccccc2)CC1 | PBMC |  |  |  | 0.006–0.05 µM
O=C(NCc1ccc(F)cc1)c1nc(N2CCCCS2(=O)=O)c2cccnc2c1O | PBMC |  |  | 89.6 | <0.009 µM
C=CCN(C(=O)NCc1ccccc1)C1CCN(C[C@H]2CN(C(=O)C3CCCC3)C[C@]2(O)c2ccccc2)CC1 | PBMC |  |  |  | >0.1 µM
C/C(=C(/CCO)SS/C(CCO)=C(\C)N(C=O)Cc1cnc(C)nc1N)N(C=O)Cc1cnc(C)nc1N | MOLT-4/HIV-1(IIIB) + MOLT-4 |  |  | IIIB | <125 µM
C=CCN(C(=O)Cc1ccc(S(=O)(=O)N(C)C)cc1)C1CCN(C[C@H]2CN(C(=O)C3CCCC3)C[C@]2(O)c2ccccc2)CC1 | PBMC |  |  |  | <0.005 µM
CN(C)C1(c2nc(C(=O)NCc3ccc(F)cc3)c(O)c(=O)[nH]2)CCOCC1 | MT-4 |  | 10% FBS | IIIB | <0.04 µM
Nc1nc(=O)n([C@@H]2CO[C@H](CO)S2)cc1F | CEM |  |  | IIIB | 0.2 µM
Cc1c(O)cccc1C(=O)N[C@@H](CSc1ccccc1)[C@H](O)CN1C[C@H]2CCCC[C@H]2C[C@H]1C(=O)NC(C)(C)C | PBMC |  |  | Ba-L Laboratory isolate | 0.003 µM
CCCc1nccc2cc(O)c(O)cc12 | H9 |  |  | IIIB | >2.23 µg/mL
Cc1ccnc2c1NC(=O)c1cccnc1N2C1CC1 | C8166 |  |  | HXB2 | 0.007 µM
CN1CCOCC1c1nc(C(=O)NCc2ccc(F)cc2)c(O)c(=O)[nH]1 | MT-4 |  | 10% FBS | IIIB | <0.03 µM
Cc1ccc(-c2ccc3c(c2)C=C(C(=O)Nc2ccc(C[N+](C)(C)C4CCOCC4)cc2)CCC3)cc1 | PBMC |  |  | CTV | 0.0035 µM
Nc1ccn([C@@H]2CO[C@H](CO)S2)c(=O)n1 | C8166 | RT-M41L |  | RF | 4.4 µM
Cc1cc(C)c(-n2nnnc2SCC(=O)Nc2ccc(C)cc2Cl)c(C)c1 | MT-4 |  |  |  | <10 µM
CC(C)(C)OC(=O)N[C@@H](Cc1ccccc1)[C@H](O)CNC[C@@H](O)[C@H](Cc1ccc(OCC(=O)N2CCOCC2)cc1)NC(=O)OC(C)(C)C | MT-2 | PR-V82A |  | NL4-3 | 0.13 µM
COC(=O)[C@H](C)NP(=O)(OC[C@@H]1C=C[C@H](n2cc(C)c(=O)[nH]c2=O)O1)Oc1ccc(Br)cc1 | PBMC | RT-D67N T69N K70R K103N Y181C T215F K219E |  | X165-8 Clinical isolate ZDV-resistant | 0.013 µM
O=C(C1CCCC1)N1C[C@H](CN2CCC(N(CC3CC3)C(=O)OCc3ccc([N+](=O)[O-])cc3)CC2)[C@@](O)(c2ccccc2)C1 | PBMC |  |  |  | 0.006–0.05 µM
CC(C)[C@H](NC(=O)c1ccc2ccccc2n1)C(=O)N[C@@H](Cc1ccccc1)[C@H](O)CN1CC[C@@H](OCc2ccncc2)C[C@H]1C(=O)NC(C)(C)C | C8166 |  |  | ddI-resistant | 0.0062 µM
Oc1ccc(/C=C/c2cc(O)cc(O)c2)cc1 | PBMC |  | clinical isolate | EJC-R2 | >10 µM
Cc1nccc2cc(O)c(O)cc12 | H9 |  |  | IIIB | >2.22 µg/mL
Cc1cc(C)c(-n2nnnc2SCC(=O)Nc2cccc(F)c2F)c(C)c1 | MT-4 |  |  |  | <10 µM
CC(C)c1nc(CN(C)C(=O)N[C@H](C(=O)N[C@@H](Cc2ccccc2)C[C@H](O)[C@H](Cc2ccccc2)NC(=O)OCc2cncs2)C(C)C)cs1 | PBMC | PR-L10R N37D M46I I62V L63P A71V G73S V77I V82T L90M I93L |  | Clinical isolate | >1 µM
CC(C)(C)NC(=O)[C@@H]1C[C@@H]2CCCC[C@@H]2CN1C[C@@H](O)[C@H](Cc1ccccc1)NC(=O)[C@H](CC(N)=O)NC(=O)c1ccc2ccccc2n1 | PBMC |  |  | BAL R5 | 0.008 µM
Nc1ncnc2c1ncn2CCOCP(=O)(O)O | CBMC |  |  | HXB2D | 0.22 ± 0.03 µM
CCC1NCCc2cc(O)c(O)cc21 | H9 |  |  | IIIB | 1.52 µg/mL

A second listing of 5 rows from above:

SMILES,cells,changes,conditions,strain,result
Cc1cn([C@H]2C[C@H](N=[N+]=[N-])[C@@H](CO)O2)c(=O)[nH]c1=O,MT-4,,,IIIB,0.007 µM
CN(C)C1(c2nc(C(=O)NCc3ccc(F)cc3)c(O)c(=O)[nH]2)CCOCC1,MT-4,,10% FBS,IIIB,<0.04 µM
Cc1nccc2cc(O)c(O)cc12,H9,,,IIIB,>2.22 µg/mL
Cc1cn([C@H]2C[C@H](N=[N+]=[N-])[C@@H](CO)O2)c(=O)[nH]c1=O,MT-2,,,NL4-3,0.002 µM
[N-]=[N+]=N[C@H]1C[C@H](n2cc(COCC(F)(F)F)c(=O)[nH]c2=O)O[C@@H]1CO,CEM,,,,1.5 µg/mL

ECn is the concentration giving n% inhibition of infection, replication or growth. An empty or dashed field is not shown. Neighbouring rows are from separate reports.